These results are taken from PMC7232359, “Mutation of Hydrophobic Residues in the C-Terminal Domain of the Marburg Virus Matrix Protein VP40 Disrupts Trafficking to the Plasma Membrane” (2020).

The test system of this data set is Marburg virus VP40 L201A mutant, 6x-His tagged, Marburg virus, P35260 1-303.

Consider “Marburg virus VP40 L201A mutant, 6x-His tagged”, for which the stoichiometry N (usually the number of molecules, sites or subunits per partner or assembly) worked out at 2.
